# Reference: PubChem BioAssay AID624099 (ICCB-Longwood, 2012)
# Assay: 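Human genes that papillomavirus E2 requires to repress the HPV18 LCR promoter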 (primary screen)
# Cell system: human C33A cervical carcinoma cells (HPV-negative) stably expressing BPV1 E2 and an HPV18 LCR luciferase reporter
# Reagent: siRNA pool against human genes, 40 nM
# Time to read-out: 72 h
# Measurement: 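HPV18 LCR reporter light per well, converted to plate-wise z-scores that exclude control wells, and averaged over triplicate plates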
# Direction: mean z-score and z-score: higher = stronger reporter signal, weaker E2 silencing
# Active means: 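Hit if mean z-score reaches 2 and two or more of three replicate z-scores also reach 2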
# The whole screen tested about 21,000 reagents; this is a part drawn at random. 497 of all reagents (2.4%) were called active. 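Higher z means weaker E2 silencing; only reporter increases were scored, and knock-downs that hurt cell survival may mask genuine repressor factors.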 No sequences are given here.
gene,mean z-score,"z-score, replicate A","z-score, replicate B","z-score, replicate C",Call
MLX,-1.08,-1.03,-0.91,-1.32,inactive
ANKRD36B,-0.9,-0.92,-0.55,-1.22,inactive
MCAM,0.55,0.79,0.65,0.22,inactive
IFIT2,0.62,0.47,0.82,0.58,inactive
GIMAP8,0.11,0.37,-0.17,0.14,inactive
EPHA2,0.42,0.95,0.4,-0.08,inactive
SNX20,-0.95,-1.05,-1.22,-0.57,inactive
RPS15AP17,0.36,0.69,-0.24,0.61,inactive
TMEM245,0.17,-0.05,0.24,0.33,inactive
PRG3,-0.42,-0.41,-0.41,-0.43,inactive
MAPK3,-0.94,-1.34,-1.31,-0.17,inactive
RIMS2,0.87,0.89,0.98,0.74,inactive
DBX2,0.05,0.15,0.22,-0.22,inactive
ACP1,-1.39,-1.32,-1.42,-1.42,inactive
INTS4,2.71,2.4,3.5,2.25,active
SUCLA2,0.92,0.62,0.77,1.37,inactive
PRR15L,1.12,1.51,1,0.85,inactive
MFRP,0.42,0.56,0.2,0.51,inactive
RND2,0.67,0.58,0.78,0.66,inactive
KRT20,-0.03,0.23,-0.05,-0.25,inactive
LINC02899,0.49,0.8,0.46,0.22,inactive
LINC00692,1.33,1.24,1.39,1.37,inactive
SLC22A24,-0.48,-0.28,-0.65,-0.49,inactive
HNRNPM,0.24,0.33,0.28,0.12,inactive
AIFM2,1.87,1.76,1.92,1.93,inactive
RPL27AP6,-4.29,-4.18,-4.14,-4.56,inactive
YJU2B,0.41,0.54,0.84,-0.16,inactive
H2AB3,2.45,2.83,1.96,2.57,active
SYCP3,-0.24,-0.54,0.09,-0.26,inactive
TSSK3,0.16,0.2,0.18,0.1,inactive
CDC42SE2,0.55,0.85,0.55,0.26,inactive
CRISP1,-0.15,-0.17,-0.19,-0.09,inactive
MPPE1,-2.42,-2.48,-2.44,-2.34,inactive
DHRS4L2,0.75,0.71,0.69,0.87,inactive
PSMB4,-0.22,0.38,-0.41,-0.62,inactive
GPATCH11P1,0.49,0.47,0.66,0.33,inactive
CPNE4,-0.63,-1.02,-0.53,-0.34,inactive
ANXA13,-0.1,-0.33,0.17,-0.15,inactive
TSNARE1,-0.12,-0.32,0.3,-0.35,inactive
NDUFB11,-2.01,-2,-1.89,-2.14,inactive
PRPF31,-0.52,-0.35,-0.4,-0.81,inactive
TTI2,-0.24,-0.3,-0.12,-0.29,inactive
MAD2L1,0.89,0.94,0.99,0.75,inactive
AIG1,0.67,0.69,0.48,0.83,inactive
MRC1,-0.23,-0.31,-0.32,-0.07,inactive
RIMBP3C,-0.04,0.31,-0.28,-0.16,inactive
AACSP1,-0.23,-0.02,-0.22,-0.44,inactive
MYL5,-0.01,0.38,0.06,-0.48,inactive
MTHFD1,0.38,0.42,0.29,0.45,inactive
PFKM,-0.15,-0.8,-0.29,0.64,inactive
GPR17,-0.95,-0.81,-0.83,-1.21,inactive
ZNF146,1.24,1.32,0.95,1.46,inactive
SCAMP1,-0.4,-0.39,-0.53,-0.29,inactive
WSCD1,-2.82,-2.65,-3.01,-2.82,inactive
SMU1,-0.9,-1.14,-1.02,-0.55,inactive
RPL10AP9,-1.62,-1.27,-1.72,-1.88,inactive
LINC00661,-1.37,-1.36,-1.38,-1.37,inactive

Part of the list above, reduced to “mean z-score”:
CDC42SE2	0.55
CRISP1	-0.15
MPPE1	-2.42
DHRS4L2	0.75
PSMB4	-0.22
GPATCH11P1	0.49
CPNE4	-0.63
ANXA13	-0.1
TSNARE1	-0.12
